According to publication PMC8286817, “Identifying SARS-CoV-2 antiviral compounds by screening for small molecule inhibitors of Nsp14 RNA cap methyltransferase” (Biochemical Journal, 2021):

Target: SARS-CoV-2 nsp14 guanine-N7 methyltransferase (Severe acute respiratory syndrome coronavirus 2, UniProt P0DTD1)
Assay: High-throughput primary screen for nsp14 inhibitors (HTRF, Z-scores)
Assay type: biochemical
Details: compounds at 3.125 µM; 10 nM nsp14, 1 µM SAM, 0.13 mM GpppA, 20 min

Structure (SMILES): O=[N+]([O-])c1cc(O)c(O)c([N+](=O)[O-])c1
- Z-Score in primary screen: 3.084
